Pooled drug test results. Numbers come from NIAID ChemDB, via PubChem.

Common to all: tests on isolated targets; species: HIV-1; target: Reverse transcriptase; read-out: inhibition

Percent inhibition refers to the dose given; in toxicity tests it is the harm to the cells.

| SMILES | strain or isolate | method | dose | value |
|---|---|---|---|---|
| C=CCN1C(=O)c2cc(Cl)nnc2N(C2CC2)c2ccccc21 | - | - | 330 µM | 57% |
| Cc1cccc(NC(=O)CC(=O)Nc2ccc3ccccc3n2)n1 | - | RT activity / absorbance | 100 µM | 82.2% |
| O=C1NC(c2c[nH]c3ccc(O)cc23)=C/C1=C1\C(=O)NC2C=CC=CC12 | - | RT activity / ELISA | 100 µM | 27.87% |
| Cc1ccc2c(c1)N(C)C(=O)c1ccnnc1N2C1CC1 | - | - | 330 µM | 68% |
| O=C1Nc2ccccc2Oc2nnccc21 | - | ELISA | 33 µM | 14% |
| C/C1=C\C=C\C2(C)C=C(CO)C(C)CC23OC([O-])C(C3=O)C(O)/C=C/C2(C)C=C(C=O)C(C)CC23OC([O-])C(C3=O)C(O)/C(C)=C/C=C/C2C=C(CO)C(C)CC23OC([O-])C(C3=O)C(O)/C=C/C2(C)C=C(C=O)C(C)CC23OC([O-])C(C3=O)C1O | IIIB | RT activity | 4 µg/mL | 58.1% |
| CCCN1C(=O)c2cc(Cl)nnc2N(C2CC2)c2ccccc21 | - | - | 330 µM | 93% |
| O=C(CC(=O)Nc1ncc(O)cc1O)Nc1ccc2ccccc2n1 | - | RT activity / absorbance | 100 µM | 82.32% |
| CCCCCCCCCCCC(=O)OCCCC[C@H]1CCCCCC[C@@H](C)NC(N)=[NH+]1 | - | RT activity / radiometric | 10 µM | 3.5% |
| COc1ccc2c(c1)NC(=O)c1cc(Cl)nnc1O2 | - | ELISA | 33 µM | 23% |
| CC(NC(=S)Nc1nc2ccccc2s1)c1ccccc1 | - | ELISA / absorbance | 250 µM | 97.5% |
| O=C(CC(=O)Nc1ccc2ccccc2n1)Nc1ccc(C(F)(F)F)cn1 | - | RT activity / absorbance | 100 µM | 63% |
| CCCN1C(=O)c2cc(Cl)nnc2N(CC)c2ccc(C)cc21 | - | - | 33 µM | 7% |
| CC(=O)OCCCC[C@H]1CCCCCC[C@@H](C)NC(N)=[NH+]1 | - | RT activity / radiometric | 10 µM | 4.3% |
| CCCCN1C(=O)c2ccnnc2N(C2CC2)c2ccccc21 | - | - | 330 µM | 28% |
| CC(CCCCC[C@H]1CCCCCC[C@@H](C)NC(N)=[NH+]1)O[Si](c1ccccc1)(c1ccccc1)C(C)(C)C.F[B-](F)(F)F | - | RT activity / radiometric | 10 µM | 47.9% |
| O=C(CC(=O)Nc1ncccc1[N+](=O)[O-])Nc1ccc2ccccc2n1 | - | RT activity / absorbance | 100 µM | 90.23% |
| C[C@@H]1CCCCCC[C@H](CCCCO[Si](C)(C)C(C)(C)C)[NH+]=C(N)N1 | - | RT activity / radiometric | 10 µM | 15.5% |
| CCN1C(=O)c2cc(Cl)nnc2N(CC)c2ccc(C)cc21 | - | - | 33 µM | 15% |
| CCCCCN1C(=O)c2cc(Cl)nnc2Oc2ccc(C)cc21 | - | ELISA | 330 µM | 26% |
| CCCN1c2ccccc2N(CC)C(=O)c2cc(Cl)nnc21 | - | - | 33 µM | 34% |
| COc1ccnc(NC(=O)CC(=O)Nc2ccc3ccccc3n2)c1 | - | RT activity / absorbance | 100 µM | 89.42% |
| CCCN1C(=O)c2ccnnc2N(CC)c2ccccc21 | - | - | 330 µM | 85% |
| CCOC(=O)CN1C(=O)c2cc(Cl)nnc2Oc2cc(C)ccc21 | - | ELISA | 33 µM | 25% |
| CC(C)(C)[Si](C)(C)OCCCC[C@H]1CCCCCC[C@@H](CCCCO[Si](C)(C)C(C)(C)C)[NH+]=C(N)N1.F[B-](F)(F)F | - | RT activity / radiometric | 40 µM | 5.8% |

Rows are shuffled and stem from different studies. An empty or dashed field is not shown.